# Molecular target: T1, V1:SidK complex (Saccharomyces cerevisiae, UniProt P16140+P17255)
# Chains of the proteins cited; added tags and fusions are not shown. Lines headed by an entry give the natural chain unless they say otherwise; changes in a name come on top.
# UniProt P16140, whole entry, looked up: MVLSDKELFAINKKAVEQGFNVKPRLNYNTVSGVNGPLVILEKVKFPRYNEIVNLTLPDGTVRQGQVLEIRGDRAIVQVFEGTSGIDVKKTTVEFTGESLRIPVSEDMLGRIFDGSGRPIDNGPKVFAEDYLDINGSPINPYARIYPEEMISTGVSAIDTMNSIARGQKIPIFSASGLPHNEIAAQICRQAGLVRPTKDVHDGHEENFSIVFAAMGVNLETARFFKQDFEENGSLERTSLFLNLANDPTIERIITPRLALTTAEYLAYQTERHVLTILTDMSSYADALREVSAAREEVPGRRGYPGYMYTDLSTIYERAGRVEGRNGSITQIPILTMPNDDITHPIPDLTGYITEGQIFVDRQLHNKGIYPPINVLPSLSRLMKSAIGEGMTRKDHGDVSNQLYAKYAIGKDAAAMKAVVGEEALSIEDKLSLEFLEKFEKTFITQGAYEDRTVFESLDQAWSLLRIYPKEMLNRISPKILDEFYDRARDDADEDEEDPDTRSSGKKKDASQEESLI
# UniProt P17255: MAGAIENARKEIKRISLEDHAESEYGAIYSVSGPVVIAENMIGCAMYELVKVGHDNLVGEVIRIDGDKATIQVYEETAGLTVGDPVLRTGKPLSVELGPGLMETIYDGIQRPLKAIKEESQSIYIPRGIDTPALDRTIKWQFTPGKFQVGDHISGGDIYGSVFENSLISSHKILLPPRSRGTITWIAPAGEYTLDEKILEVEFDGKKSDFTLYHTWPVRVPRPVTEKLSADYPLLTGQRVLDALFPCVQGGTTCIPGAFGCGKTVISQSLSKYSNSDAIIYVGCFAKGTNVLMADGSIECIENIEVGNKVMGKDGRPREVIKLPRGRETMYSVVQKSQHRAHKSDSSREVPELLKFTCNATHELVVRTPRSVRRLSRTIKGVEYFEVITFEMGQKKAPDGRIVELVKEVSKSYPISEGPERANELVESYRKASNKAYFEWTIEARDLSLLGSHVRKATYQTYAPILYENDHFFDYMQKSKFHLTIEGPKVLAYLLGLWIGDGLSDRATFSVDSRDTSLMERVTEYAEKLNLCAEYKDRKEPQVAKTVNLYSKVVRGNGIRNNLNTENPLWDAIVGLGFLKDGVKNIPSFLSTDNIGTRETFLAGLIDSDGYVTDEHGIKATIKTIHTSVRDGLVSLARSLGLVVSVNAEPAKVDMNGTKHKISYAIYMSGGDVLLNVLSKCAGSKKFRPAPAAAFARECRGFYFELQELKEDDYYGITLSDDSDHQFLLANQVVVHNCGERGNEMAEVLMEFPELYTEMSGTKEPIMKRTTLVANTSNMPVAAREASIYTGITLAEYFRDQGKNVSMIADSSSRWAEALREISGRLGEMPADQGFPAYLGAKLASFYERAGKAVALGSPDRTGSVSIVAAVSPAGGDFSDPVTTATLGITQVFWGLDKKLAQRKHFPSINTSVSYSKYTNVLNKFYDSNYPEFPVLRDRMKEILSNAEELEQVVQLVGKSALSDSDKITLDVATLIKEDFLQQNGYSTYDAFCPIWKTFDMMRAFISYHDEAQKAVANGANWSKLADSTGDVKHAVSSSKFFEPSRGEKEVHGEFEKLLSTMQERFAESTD
# T1 construct: gene VMA1
substance,measurement,value
"2',3'-O-(2,4,6-trinitrophenyl) adenosine 5'-triphosphate [TNP-ATP]",Kd,280 ± 60 nM
